# Test results published in publication PMC7279216, “Identification of Inhibitors to Trypanosoma cruzi Sirtuins Based on Compounds Developed to Human Enzymes” (International Journal of Molecular Sciences, 2020).
# Assays:
# [1] = system: T. cruzi Y H10 strain; experiment: High content assay (HCA), T. cruzi in vitro infection of U2OS cells; assay type: cell-based, Trypanosoma cruzi
# [2] = system: T. cruzi Y H10 strain; experiment: Combinatory high content assay of SIRTi with BZN, T. cruzi in vitro infection; assay type: cell-based, Trypanosoma cruzi
compound,measurement,setting,value
C=CCN1C(=O)/C(=C\c2ccc(-c3ccc(Cl)c(Cl)c3)o2)C(=O)NC1=S [Compound 32],SI (selectivity index = CC50/EC50),[1],1.93
same,CI (combinatory index) with BZN,"[2]; Ratio 1, EC50 ratio 1/32 (BZN 0.8 µM)",0.19
same,CI (combinatory index) with BZN,"[2]; Ratio 2, EC50 ratio 1/16 (BZN 1.5 µM)",0.30
same,CI (combinatory index) with BZN,"[2]; Ratio 3, EC50 ratio 1/8 (BZN 3 µM)",0.82
same,CI (combinatory index) with BZN,"[2]; Ratio 4, EC50 ratio 1/4 (BZN 6 µM)",0.84
same,CI (combinatory index) with BZN,"[2]; Ratio 5, EC50 ratio 1/2 (BZN 12 µM)",1.56
same,CI (combinatory index) with BZN,"[2]; Ratio 6, EC50 ratio 1 (BZN 24 µM)",1.66
same,CI (combinatory index) with BZN,"[2]; Ratio 7, EC50 ratio 2 (BZN 48 µM)",1.82
